A mixed list of measured activities; the numbers were collected in NIAID ChemDB.

Inhibition is in % at the dose shown (toxicity tests: loss of growth or viability). A number after MIC or MFC names an inhibition level or a share of isolates. ECn is the concentration giving n% inhibition of infection, replication or growth. Lines come from different laboratories, so protocols vary. ICn: concentration for n% inhibition. Blank or dashed fields: not listed here.

| compound | kind | species | strain | cells | protein | read by | read-out | tested at | value |
|---|---|---|---|---|---|---|---|---|---|
| Cc1cccc(-c2cncc(N3CCN(c4ccc(F)cc4)CC3)n2)c1 | target | Cytomegalovirus |  |  | UL97 kinase |  | IC50 |  | <100 µM |
| O=C(Nc1ccc2c(O)c(N=Nc3ccc(N=Nc4ccc(S(=O)(=O)O)cc4)cc3)c(S(=O)(=O)O)cc2c1)c1ccccc1 | culture | Herpes simplex virus |  | Human amnion AV3 cells |  | cytopathic effect | inhibition | 10 µg/mL | 0% |
| CCOC(=O)c1cnc(NCCCCNc2ccnc3cc(Cl)ccc23)nc1C | culture | Cryptococcus gattii | L24/01 |  |  |  | MIC99 |  | 8 µg/mL |
| CC(=O)c1ccccc1-c1cncc(N2CCN(c3cccc(Cl)c3)CC2)n1 | target | Cytomegalovirus |  |  | UL97 kinase |  | inhibition | 10 µM | >15% |
| O=[N+]([O-])c1ccc(C=Nc2ccccc2O)cc1 | culture | Cryptococcus neoformans | F-10 |  |  |  | MIC99 |  | 11.3 µg/mL |
| O=C(Nc1cc(S(=O)(=O)O)cc2cc(S(=O)(=O)O)cc(O)c12)c1ccccc1 | culture | Herpes simplex virus |  | Human amnion AV3 cells |  | cytopathic effect | inhibition | 50 µg/mL | 10% |
| CC(=O)N[C@H]1[C@H]([C@H](O)[C@H](O)CO)OC(C(=O)O)=C[C@@H]1N=C(N)N | culture | Influenza A virus | Influenza A/Shandong/09/93 (H3N2) | MDCK |  | visual reading | EC50 |  | 0.07 µM |
| NS(=O)(=O)O | culture | Herpes simplex virus |  | Human amnion AV3 cells |  | cytopathic effect | inhibition | 50 µg/mL | 0% |
| CCOC(=O)c1c(C)nc(NCCCCNc2ccnc3cc(Cl)ccc23)nc1-c1ccccc1[N+](=O)[O-] | culture | Cryptococcus gattii | 135L/03 |  |  |  | MIC99 |  | 8 µg/mL |
| Fc1cccc(-c2cncc(N3CCN(c4ccncc4)CC3)n2)c1 | target | Cytomegalovirus |  |  | UL97 kinase |  | IC50 |  | <100 µM |
| C=CCc1ccc(OC)c(OC)c1 | culture | Candida glabrata | 2892 |  |  | turbidity | MIC90 |  | 345 µg/mL |
| Cc1nc(NCCCCNc2ccnc3cc(Cl)ccc23)nc(-c2ccccc2[N+](=O)[O-])c1C(=O)OC(C)C | culture | Cryptococcus neoformans | 27JF |  |  |  | MIC99 |  | 16 µg/mL |
| Nc1ccc2c(O)cc(S(=O)(=O)[O-])cc2c1S(=O)(=O)[O-] | culture | Adenovirus | TYPE 3 | Human amnion AV3 cells |  | cytopathic effect | inhibition | 10 µg/mL | 0% |
| CCO/N=C/c1ccc(OCCC2CCN(c3ccc(Cl)nn3)CC2)cc1 | culture | Rhinovirus | 1794 (ICAM-1 receptor group 40) | KB |  | neutral red | EC50 |  | 0.003 µM |
| Fc1ccc(N2CCCCC2)c(NC(=S)c2ccncc2)c1 | host protein |  |  |  | cSRC | kinase activity | inhibition | 10 µM | -6% |
| Cc1ccc(-c2cncc(N3CCN(c4ccc(F)cc4F)CC3)n2)cc1 | target | Cytomegalovirus |  |  | UL97 kinase |  | inhibition | 10 µM | >15% |
| O=S(=O)(O)c1ccc2cc(O)c(S(=O)(=O)O)cc2c1 | culture | Adenovirus | TYPE 3 | Human amnion AV3 cells |  | cytopathic effect | inhibition | 50 µg/mL | 0% |
| COc1ccc(-c2cncc(N3CCN(c4ccc(C(C)=O)cc4)CC3)n2)cc1F | target | Cytomegalovirus |  |  | UL97 kinase |  | inhibition | 1 µM | <50% |
| O=S(=O)(O)c1cc(O)c2c(O)c(N=Nc3ccccc3)c(S(=O)(=O)O)cc2c1 | culture | Herpes simplex virus |  | Human amnion AV3 cells |  | cytopathic effect | inhibition | 10 µg/mL | 10% |

Repeating the first 3 entries:

compound,kind,species,strain,cells,protein,read by,read-out,tested at,value
Cc1cccc(-c2cncc(N3CCN(c4ccc(F)cc4)CC3)n2)c1,target,Cytomegalovirus,,,UL97 kinase,,IC50,,<100 µM
O=C(Nc1ccc2c(O)c(N=Nc3ccc(N=Nc4ccc(S(=O)(=O)O)cc4)cc3)c(S(=O)(=O)O)cc2c1)c1ccccc1,culture,Herpes simplex virus,,Human amnion AV3 cells,,cytopathic effect,inhibition,10 µg/mL,0%
CCOC(=O)c1cnc(NCCCCNc2ccnc3cc(Cl)ccc23)nc1C,culture,Cryptococcus gattii,L24/01,,,,MIC99,,8 µg/mL